Reference: paper PMC5612115

Target: His6-tagged sCD4 (D1-D2)
Experiment: BLI
Conditions: complex

LT5.J4b12C SOSIP.664 trimeric Env (HIV-1 B/C recombinant, soluble gp140)
Kd: 0.0197 µM
koff: 0.000254 s⁻¹
